Measured values from several laboratories, pooled; numbers as filed in NIAID ChemDB.

Shared fields: tests in culture; species: HIV-1; read-out: EC50

ECn is the concentration giving n% inhibition of infection, replication or growth.

| compound | changes | cells | strain | value |
|---|---|---|---|---|
| COP(=O)(c1cc(C)cc(CCC#N)c1)c1c(C(N)=O)[nH]c2ccc(Cl)c(F)c12 |  | PBMC | NL4-3 | 0.0015 µM |
| CCOCn1c(Cc2ccccc2)c(C(C)C)c(=O)[nH]c1=O | RT-Y181C |  |  | >100 µM |
| COCCOC1(C(F)(F)F)OC(=O)Nc2ccc(Cl)cc21 |  |  |  | <0.06141 µM |
| COCc1nc(Nc2ccc(C#N)cc2)nc(Oc2c(C)cc(/C=C/C#N)cc2C)c1C(=O)NCc1ccncc1 |  | MT4 CMV-EGFP | K103N+Y101C | 0.0617 µM |
| CCCOC1(C(F)(F)F)OC(=O)Nc2ccc(Cl)cc21 |  |  |  | <0.00581 µM |
| O=C(O)C(=O)/C=C(\O)c1cc(Cc2ccccc2F)cn(Cc2ccc(F)cc2F)c1=O |  | MAGI |  | 0.6 µM |
| CCN1C[C@H](C)N2C(=C(O)C3C(=O)N4Cc5ccc(F)cc5OCCCCN5CCN(C(=N4)C32)S5(=O)=O)C1=O |  | MT-4 | LAII(IIIB) | 0.98 µM |
| O=C(O)C(=O)/C=C(\O)c1cc(Cc2ccccc2)cn(Cc2cccc(Cl)c2F)c1=O |  | MAGI |  | 0.7 µM |
| CC(=O)OC[C@H]1O[C@@H](Sc2nnc(-c3ccc(C)cc3)n2N)[C@H](OC(C)=O)[C@@H](OC(C)=O)[C@@H]1OC(C)=O |  | MT-4 | IIIB | >100 µM |
| COCc1nc(Nc2ccc(C#N)cc2)nc(Nc2c(C)cc(/C=C/C#N)cc2C)c1C(=O)NCC1CCCO1 |  | MT4 CMV-EGFP | K103N+Y101C | 0.0372 µM |
| Nc1ccn(C/C=C\COCP(=O)(O)O)c(=O)n1 |  | PBL |  | >100 µM |
| COc1ccc(-c2nnc(S[C@@H]3O[C@H](CO)[C@@H](O)[C@H](O)[C@H]3O)n2N)cc1 |  | MT-4 | IIIB | >100 µM |
| COc1ccc(Cn2cc(Cc3ccccc3)cc(/C(O)=C/C(=O)C(=O)O)c2=O)cc1 |  | MAGI |  | 1.8 µM |
| O=C1Nc2ccc(Cl)cc2C(C#Cc2ccsc2)(C(F)(F)F)O1 |  |  |  | <0.00447 µM |
| Cc1ccc(S(=O)(=O)NC(C)c2nnc(SCc3ccc(Br)cc3)o2)cc1 |  | MT-4 | IIIB | >75.33 µg/mL |
| COCc1nc(Nc2ccc(C#N)cc2)nc(Nc2c(C)cc(/C=C/C#N)cc2C)c1C(=O)N(C)OC |  | MT4 CMV-EGFP | L1001+K103N | 0.0646 µM |
| O=C(O)C(=O)/C=C(\O)c1cc(Cc2ccccc2F)cn(Cc2cccc(F)c2)c1=O |  | MAGI |  | 1.9 µM |
| CC[C@@H]1O[C@](C#CC2CC2)(C(F)(F)F)c2cc(F)ccc2NC1=O |  | MT-2 | RF | <0.0053 µM |
| Cc1cn([C@@H]2O[C@@H]3CN[C@@]4(C(N)=O)CS(=O)(=O)O[C@@]34[C@H]2O[Si](C)(C)C(C)(C)C)c(=O)[nH]c1=O |  | MT-4 | IIIB | >125 µM |
| CCN1C[C@H](C)N2C(=C(O)C3C(=O)N4Cc5ccc(F)cc5OCCC(=O)N5CCN(CC5)C(=N4)C32)C1=O |  | MT-4 | LAII(IIIB) | 3.01 µM |
| COCc1nc(Nc2ccc(C#N)cc2)nc(Nc2c(C)cc(/C=C/C#N)cc2C)c1C(=O)NCCc1ccc(S(N)(=O)=O)cc1 |  | MT4 CMV-EGFP | K103N+Y101C | 0.0724 µM |
| O=C1Nc2ccc(Cl)cc2C(OCC(F)(F)C(F)(F)F)(C(F)(F)F)O1 |  |  |  | <0.6506 µM |
| Cc1ccc(S(=O)(=O)NC(Cc2ccccc2)c2nnc(SCc3ccccc3)o2)cc1 |  | MT-4 | IIIB | >11.67 µg/mL |
| CCO[C@]12CS(=O)(=O)O[C@@]13C(CN2)O[C@@H](n1cc(C)c(=O)n(C)c1=O)[C@@H]3O[Si](C)(C)C(C)(C)C |  | MT-4 | IIIB | 3.6 µM |
| COCc1nc(Nc2ccc(C#N)cc2)nc(Oc2c(C)cc(/C=C(\C)C#N)cc2C)c1C(=O)NCc1ccncc1 |  | MT4 CMV-EGFP | K103N+Y101C | 0.105 µM |
| COCCOC(O)c1cnc(Nc2ccc(C#N)cc2)nc1Nc1c(C)cc(/C=C/C#N)cc1C |  | MT-4 | IIIB | 0.0024 µM |
| O=C1CO[C@](C#CC2CC2)(C(F)(F)F)c2cc(Cl)ccc2N1 | RT-K103N |  |  | <1.395 µM |
| Nn1c(SC(c2ccccc2)c2ccccc2)nnc1-c1ccc(Cl)cc1 |  | MT-4 | IIIB | >100 µM |
| C=Cc1c(Cc2ccccc2)n(COCC)c(=O)[nH]c1=O | RT-Y181C |  |  | 100 µM |
| CCO[C@]12CS(=O)(=O)O[C@@]13[C@@H](CN2)O[C@@H](n1cc(C)c(=O)[nH]c1=O)[C@@H]3O |  | CEM | IIIB | >250 µM |
| COCc1nc(Nc2ccc(C#N)cc2)nc(Nc2c(C)cc(/C=C/C#N)cc2C)c1C(=O)NCCC#N |  | MT4 CMV-EGFP | IIIB | 0.00126 µM |
| C/C=C\COC1(C(F)(F)F)OC(=O)Nc2ccc(Cl)cc21 |  |  |  | <0.00435 µM |
| Cc1cc(/C=C/C#N)cc(C)c1Nc1nc(Nc2ccc(C#N)cc2)ncc1C(O)n1ccnc1 |  | MT-4 | MDR | 501 µM |
| Cc1ccc(-c2nnc3sc(CN4C(=O)c5ccccc5C4=O)nn23)cc1 | RT-Y181C | MT-4 | NNRTI-resistant N119 | >100 µM |
| COC[C@@H](c1ccc(C(F)(F)F)cc1)N1CCN(C2(C)CCN(C(=O)c3c(C)ncnc3C)CC2)C[C@@H]1C | G514V | PBMC | S | 0.00013 µM |
| O=C1Nc2ccc(Cl)cc2C(OCc2cccnc2)(C(F)(F)F)O1 |  |  |  | <0.07527 µM |
| CC[C@@H]1O[C@](/C=C/C2CC2)(C(F)(F)F)c2cc(F)ccc2NC1=O |  | MT-2 | RF | <0.0025 µM |
| O=C1Nc2ccc(Cl)cc2[C@@](C#CC2CC2)(C(F)(F)F)O1 | V106A | MT-4 |  | 0.0065 µM |
| O=C1Nc2ccc(Cl)cc2C(C#Cc2ccncc2)(C(F)(F)F)O1 | RT-K103N |  |  | <0.1446 µM |
| CCOCn1c(Cc2ccccc2)c(C=O)c(=O)[nH]c1=O | RT-Y181C |  |  | >100 µM |
| COC(O)c1cnc(Nc2ccc(C#N)cc2)nc1Nc1c(C)cc(/C=C/C#N)cc1C |  | MT-4 | PSI (IIIB) | 240 µM |
| O=C1Nc2ccc(Cl)cc2C(OCCC2CC2)(C(F)(F)F)O1 |  |  |  | <0.00804 µM |
| C[C@@H]1O[C@](C#CC2CC2)(C(F)(F)F)c2cc(F)ccc2NC1=O | RT-K103N |  |  | <0.333 µM |
| CC(NS(=O)(=O)c1ccc(Cl)cc1)c1nnc(SCc2ccc(Br)cc2)o1 |  | MT-4 | IIIB | >12.33 µg/mL |
| CCN1C[C@H](C)N2C(=C(O)C3C(=O)N4Cc5ccc(F)cc5C(=O)NCCCS(=O)(=O)N(C)C(=N4)C32)C1=O |  | MT-4 | LAII(IIIB) | 0.7 µM |
| Nc1ncnc2c1ncn2C/C=C\COCP(=O)(O)O |  | MT-4 |  | 9 µM |
| Cc1cccc(Cn2cc(Cc3ccccc3F)cc(/C(O)=C/C(=O)C(=O)O)c2=O)c1 |  | MAGI |  | 0.9 µM |
| CSCCC(NS(=O)(=O)c1ccc(C)cc1)c1nnc(SCc2ccc(Br)cc2)o1 |  | MT-4 | IIIB | >11.75 µg/mL |
| Nc1nc2c(ncn2C/C=C\CO)c(=O)[nH]1 |  | PBL |  | >100 µM |
| CCN1C[C@H](C)N2C(=C(O)C3C(=O)N4Cc5cc(Cl)c(F)cc5OCCCCCNC(=O)C(=N4)C32)C1=O |  | MT-4 | LAII(IIIB) | 5.93 µM |
| Nn1c(-c2ccc(Cl)cc2)n[nH]c1=S |  | MT-4 | IIIB | >100 µM |
| COCc1nc(Nc2ccc(C#N)cc2)nc(Nc2c(C)cc(/C=C/C#N)cc2C)c1C(=O)N1CCN(C)CC1 |  | MT4 CMV-EGFP | IIIB | 0.024 µM |
| CSCCC(NS(=O)(=O)c1ccc(Cl)cc1)c1nnc(SCc2ccccc2)o1 |  | MT-4 | IIIB | >12.67 µg/mL |
| CCN1C[C@H](C)N2C(=C(O)C3C(=O)N4Cc5ccc(F)cc5OCCCCCN(C)C(=O)C(=N4)C32)C1=O |  | MT-4 | LAII(IIIB) | 4.36 µM |
| O=C(O)C(=O)/C=C(\O)c1cc(Cc2cccc(Cl)c2)cn(Cc2ccc(F)cc2)c1=O |  | MAGI |  | 1.4 µM |
| COc1ccc(-c2nnc(SN3CCOCC3)n2N)cc1 | RT-Y181C | MT-4 | NNRTI-resistant N119 | >100 µM |
| C#CCO[C@]12CS(=O)(=O)O[C@@]13[C@@H](CN2)O[C@@H](n1cc(C)c(=O)[nH]c1=O)[C@@H]3O[Si](C)(C)C(C)(C)C |  | MT-4 | IIIB | >25 µM |
| Cc1cc(/C=C/C#N)cc(C)c1Nc1nc(Nc2ccc(C#N)cc2)ncc1C(O)c1ccccn1 |  | MT-4 | PSI (IIIB) | 234 µM |
| COc1ccc(-c2nnc3sc(C(CC(C)C)N4C(=O)c5ccccc5C4=O)nn23)cc1 | RT-Y181C | MT-4 | NNRTI-resistant N119 | >100 µM |
| C[C@H]1CN(C2CC2)C(=O)C2=C(O)C3C(=O)N4Cc5ccc(F)cc5OCCCCCNC(=O)C(=N4)C3N21 |  | MT-4 | LAII(IIIB) | 3.29 µM |
| CNC(O)c1cnc(Nc2ccc(C#N)cc2)nc1Nc1c(C)cc(/C=C/C#N)cc1C |  | MT-4 | K103N + Y181C | 0.06607 µM |
| CCN1CCN2C(=C(O)C3C(=O)N4Cc5ccc(F)cc5OCCCCCN(C)C(=O)C(=N4)C32)C1=O |  | MT-4 | LAII(IIIB) | 7.2 µM |
| CCC(O)c1cnc(Nc2ccc(C#N)cc2)nc1Nc1c(C)cc(/C=C/C#N)cc1C |  | MT-4 | PSI (IIIB) | 1070 µM |

9 of the rows above, restated:

compound	changes	cells	strain	value
O=C1Nc2ccc(Cl)cc2C(OCC(F)(F)C(F)(F)F)(C(F)(F)F)O1				<0.6506 µM
COc1ccc(-c2nnc(SN3CCOCC3)n2N)cc1	RT-Y181C	MT-4	NNRTI-resistant N119	>100 µM
O=C1Nc2ccc(Cl)cc2C(C#Cc2ccncc2)(C(F)(F)F)O1	RT-K103N			<0.1446 µM
C#CCO[C@]12CS(=O)(=O)O[C@@]13[C@@H](CN2)O[C@@H](n1cc(C)c(=O)[nH]c1=O)[C@@H]3O[Si](C)(C)C(C)(C)C		MT-4	IIIB	>25 µM
Nc1ncnc2c1ncn2C/C=C\COCP(=O)(O)O		MT-4		9 µM
O=C1Nc2ccc(Cl)cc2[C@@](C#CC2CC2)(C(F)(F)F)O1	V106A	MT-4		0.0065 µM
C=Cc1c(Cc2ccccc2)n(COCC)c(=O)[nH]c1=O	RT-Y181C			100 µM
COCc1nc(Nc2ccc(C#N)cc2)nc(Oc2c(C)cc(/C=C(\C)C#N)cc2C)c1C(=O)NCc1ccncc1		MT4 CMV-EGFP	K103N+Y101C	0.105 µM
COCc1nc(Nc2ccc(C#N)cc2)nc(Oc2c(C)cc(/C=C/C#N)cc2C)c1C(=O)NCc1ccncc1		MT4 CMV-EGFP	K103N+Y101C	0.0617 µM

An empty or dashed field is not shown. Lines come from different laboratories, so protocols vary.